Assay results taken from US6663881B2 (priority 1993, dated 2003).

Legend:
Test in all cases: MTT assay 48 hours after 5-minute exposure
Settings in all cases: 5 minutes exposure, 48 hours recovery
[1] = system: A375 m/m marker-positive cells; format: cell-based, human
[2] = system: BO54 marker-positive smooth muscle cells; format: cell-based, baboon
[3] = system: HT29 marker-negative cells; format: cell-based

Measured: inhibition of metabolic activity (MTT)

Roridin A
non-specifically inhibitory: [1] | [2] | [3]
